The target of this assay is SARS-CoV-2 spike glycoprotein (Severe acute respiratory syndrome …, UniProt P0DTC2). As to the kind of experiment: immunostaining of cells or tissue.

Like-named read-outs stand apart in the source and are kept apart here.

Experimental findings from PMC7846482 (The Journal of Biological Chemistry, 2021) are described below.

B1: mouse anti-SARS-CoV-2 spike monoclonal antibody clone S1D7 (antibody, V domains shown)
VH: QVQLQQSGAELVKPGASVKLSCKASGYTFTSYYIYWMKQRPGQGLEWIGEINPNNGGTNFNEKFKSKATLTVDKSSSTAYMQLSSLTSEDSAVYYCTRGHSDYWGQGTTLTVSS
VL: DIVLTQSPASLAVSLGQRATISCRASESVEYYGTGLMQWYQQKPGQPPKLLIYAASNVESGVPARFSGSGSGTDFSLNIHPVEEDDIAMYFCQQTRKVPYTFGGGTKLEIK
Consider B1, for which the binding result (one partner purified) was “binds”.

B2: recombinant human/mouse chimeric antibody S1D7h (antibody, V domains shown)
VH: B1 VH
VL: B1 VL
Take B2: the binding result is “binds”.

B3: mouse anti-SARS-CoV-2 spike monoclonal antibody clone S3D8 (antibody, V domains shown)
VH: QVQLQQSGAELVKPGASVKLSCKASGYTFTSYYMYWMKQRPGQGLEWIGEINPSNGGTNFNEKFKSKATLTVDKSSSTAYMQLSSLTSEDSAVYYCTIFITRDAMDYWGQGTSVTVSS
VL: QIVLTQSPAIMSASPGEKVTLTCSASSSVSSSYLFWYQQKPGSSPKLWIYTTSNLASGVPARFSGSGSGTSYSLTISSMEAEDAASYFCHQWSSYPPTFGAGTKLELK
On to B3, for which the binding result (one partner purified) is on record as “binds”.

B4: recombinant human/mouse chimeric antibody S3D8h (antibody, V domains shown)
VH: B3 VH
VL: B3 VL
Turning to B4, the binding result is “binds”.
